Anti-infective test results gathered from many reports (values: NIAID ChemDB through PubChem).

Shared fields: whole-cell or culture tests; agent: HIV-1; method: RT activity; endpoint: fold resistance

Blank or dashed fields: not listed here.

Nc1ccn([C@@H]2CS[C@H](CO)O2)c(=O)n1 ; cells: PBMC ; mutations: RT-M41L T69ins L74V M184V L210W T215Y ; strain or isolate: 52534-2 NRTI resistant recombinant ; result: >300
Nc1ccn([C@H]2CO[C@@H](CO)S2)c(=O)n1 ; cells: MT-4 ; mutations: RT-D67G ; strain or isolate: HxB2D(RT-D67G) ; result: 2.14
CO[C@H]1O[C@@H](n2ccc(=O)[nH]c2=O)C[C@@H]1N=[N+]=[N-] ; cells: MT-2 ; mutations: RT-S156A ; strain or isolate: HX(RT-S156A) ; result: 0.0275
Nc1ccn([C@@H]2CO[C@H](CO)S2)c(=O)n1 ; cells: MT-4 ; mutations: RT-D67G ; strain or isolate: HxB2D(RT-D67G) ; result: 2.93
O=c1[nH]cnc2c1ncn2[C@H]1CC[C@@H](CO)O1 ; cells: MT-4 ; mutations: RT-M184V P294S ; strain or isolate: HXB2-D184+294 (RT M184V P294S) ; result: 4.81
Nc1nc(=O)n([C@@H]2CO[C@H](CO)S2)cc1F ; cells: MT-4 ; mutations: RT-M184V ; strain or isolate: HXB2D (RT-M184V) ; result: >15.2
Cc1cn([C@H]2C=C[C@@H](CO)O2)c(=O)[nH]c1=O ; cells: PBMC ; mutations: RT-D67N T69N K70R M184V T215F K219Q ; strain or isolate: 7295-1 NRTI resistant recombinant ; result: 1.9
O=c1[nH]cnc2c1ncn2[C@H]1CC[C@@H](CO)O1 ; cells: MT-2 ; mutations: RT-S156A ; strain or isolate: HX(RT-S156A) ; result: 1.125
CC(C)OC(=O)OCOP(=O)(CO[C@H](C)Cn1cnc2c(N)ncnc21)OCOC(=O)OC(C)C ; cells: PBMC ; mutations: RT-M41L T69ins L74V M184V L210W T215Y ; strain or isolate: 52534-2 NRTI resistant recombinant ; result: 4.2
COc1ccc(C[C@H](NC(=O)c2cccc(O)c2C)[C@H](O)C(=O)N2CSC(C)(C)[C@H]2C(=O)NCc2ccccc2C)cc1 ; cells: PBMC ; mutations: PR-L10R M46I L63P A71V V82T I84V ; strain or isolate: 052-52 PI-resistant ; result: 5
CC(C)(C)NC(=O)[C@@H]1CN(Cc2cccnc2)CCN1C[C@@H](O)C[C@@H](Cc1ccccc1)C(=O)N[C@H]1c2ccccc2C[C@H]1O ; conditions: 10 d ; cells: CEM + CEM-SS ; mutations: PR-G48V L90M ; strain or isolate: Saquinavir-resistant (PR G48V L90M) ; result: 3
CC(C)CN(C[C@@H](O)[C@H](Cc1ccccc1)NC(=O)O[C@H]1CCOC1)S(=O)(=O)c1ccc(N)cc1 ; cells: PBMC ; mutations: PR-L10R M46I L63P A71V V82T I84V ; strain or isolate: 052-52 PI-resistant ; result: 21
Nc1nc(NC2CC2)c2ncn([C@H]3C=C[C@@H](CO)C3)c2n1 ; cells: PBMC ; mutations: RT-T69K K70G V75I F77L F116Y Q151M M184V ; strain or isolate: 56252-1 NRTI resistant recombinant ; result: >100
COc1cccc(C[C@H](NC(=O)c2cccc(O)c2C)[C@H](O)C(=O)N2CSC(C)(C)[C@H]2C(=O)NCc2c(C)cccc2C)c1 ; cells: PBMC ; mutations: PR-L10R M46I L63P A71V V82T I84V ; strain or isolate: 052-52 PI-resistant ; result: <1
Nc1ccn([C@H]2CC[C@@H](CO)O2)c(=O)n1 ; cells: CEM + CEM-SS ; mutations: RT-Y181C ; strain or isolate: N119 nevirapine-resistant (RT Y181C) ; result: 3.03
Cc1ccccc1CNC(=O)[C@H]1N(C(=O)[C@@H](O)[C@H](Cc2ccccc2)NC(=O)c2cccc(O)c2C)CSC1(C)C ; cells: PBMC ; mutations: PR-L10I M46I I54V L63P A71V V82A L90M ; strain or isolate: 1026-40 PI-resistant ; result: 6
Nc1nc(=O)n([C@H]2CO[C@@H](CO)S2)cc1F ; cells: CBMC ; mutations: RT-M184I ; strain or isolate: HXB2D(RT-M184I) ; result: 1.03
Nc1nc(=O)n([C@@H]2CO[C@H](CO)S2)cc1F ; cells: CBMC ; mutations: RT-M184I ; strain or isolate: HXB2D (M1841I) ; result: 1.07
Cc1cccc(C)c1OCC(=O)N[C@@H](Cc1ccccc1)[C@@H](O)C[C@H](Cc1ccccc1)NC(=O)[C@H](C(C)C)N1CCCNC1=O ; cells: PBMC ; mutations: PR-L10I M46I I54V L63P A71V V82A L90M ; strain or isolate: 1026-40 PI-resistant ; result: 306

The first 2 rows once more:

smiles | conditions | cells | mutations | strain or isolate | result
Nc1ccn([C@@H]2CS[C@H](CO)O2)c(=O)n1 |  | PBMC | RT-M41L T69ins L74V M184V L210W T215Y | 52534-2 NRTI resistant recombinant | >300
Nc1ccn([C@H]2CO[C@@H](CO)S2)c(=O)n1 |  | MT-4 | RT-D67G | HxB2D(RT-D67G) | 2.14

Conditions beyond the fields shown may differ between rows. Fold resistance has wild type as its base.